Data reported in publication PMC9312377.

Experiments:
Assay in all cases: Modified thermofluor assay, BXA-rPAN thermal stabilization
[1] = target: recombinant A(H1N1)pdm09 PAN E23K+I38T (Influenza A virus, UniProt C3W5S0, DEL51-57/DEL61-72/E23K/E59G/I38T); details: for SYPRO Orange signal: 37uM BXA
[2] = test system: recombinant A(H3N2) PAN E23K
[3] = target: recombinant A(H1N1)pdm09 PAN E23G (Influenza A virus, UniProt C3W5S0, DEL51-57/DEL61-72/E23G/E59G); details: 37uM BXA

O=C1c2c(O)c(=O)ccn2N([C@@H]2c3ccccc3SCc3c2ccc(F)c3F)[C@@H]2COCCN12
SYPRO Orange signal ([1]; 30 °C): 5872.56 RFU and 7879.31 RFU and 8380.31 RFU | SYPRO Orange signal ([1]; 31 °C): 6195.71 RFU and 8264.42 RFU and 8953.73 RFU | SYPRO Orange signal ([1]; 32 °C): 6505.91 RFU and 8318.23 RFU and 9166.51 RFU | SYPRO Orange signal ([1]; 33 °C): 6203.65 RFU and 8455.22 RFU and 8543.86 RFU | SYPRO Orange signal ([1]; 34 °C): 6790.53 RFU and 8433.43 RFU and 8964.02 RFU | SYPRO Orange signal ([1]; 35 °C): 6739.42 RFU and 7562.44 RFU and 8463.87 RFU | SYPRO Orange signal ([1]; 36 °C): 7390.66 RFU and 7591.98 RFU and 9168.48 RFU | SYPRO Orange signal ([1]; 37 °C): 7300.62 RFU and 7900.52 RFU and 9553.25 RFU | SYPRO Orange signal ([1]; 38 °C): 7452.24 RFU and 7691.61 RFU and 9382.76 RFU | SYPRO Orange signal ([1]; 39 °C): 7595.49 RFU and 7805.73 RFU and 9538.41 RFU | SYPRO Orange signal ([1]; 40 °C): 7144.31 RFU and 7745.3 RFU and 9326.61 RFU | SYPRO Orange signal ([1]; 41 °C): 7523.62 RFU and 8082.31 RFU and 10056.4 RFU | SYPRO Orange signal ([1]; 42 °C): 6553.14 RFU and 8330.03 RFU and 9625.31 RFU | SYPRO Orange signal ([1]; 43 °C): 6308.15 RFU and 8153.11 RFU and 9828.59 RFU | SYPRO Orange signal ([1]; 44 °C): 6367.9 RFU and 8052.38 RFU and 9686.43 RFU | SYPRO Orange signal ([1]; 45 °C): 6024.01 RFU and 8171.95 RFU and 9864.25 RFU | SYPRO Orange signal ([1]; 46 °C): 5879.53 RFU and 8246.28 RFU and 9525.18 RFU | SYPRO Orange signal ([1]; 47 °C): 5608.16 RFU and 7765.84 RFU and 9654.27 RFU | SYPRO Orange signal ([1]; 48 °C): 5852.78 RFU and 8189.7 RFU and 9797.46 RFU | SYPRO Orange signal ([1]; 49 °C): 5217.03 RFU and 8390.63 RFU and 10273.6 RFU | SYPRO Orange signal ([1]; 50 °C): 5184.36 RFU and 8235.09 RFU and 10294 RFU | SYPRO Orange signal ([1]; 51 °C): 5257.82 RFU and 7864.96 RFU and 10148 RFU | SYPRO Orange signal ([1]; 52 °C): 5420.42 RFU and 8591.09 RFU and 10383.3 RFU | SYPRO Orange signal ([1]; 54 °C): 5418.14 RFU and 8792.52 RFU and 10293.3 RFU | SYPRO Orange signal ([1]; 55 °C): 5495.99 RFU and 8870.15 RFU and 10549.4 RFU | SYPRO Orange signal ([1]; 56 °C): 6050.58 RFU and 9594.03 RFU and 11019.3 RFU | SYPRO Orange signal ([1]; 57 °C): 6826.55 RFU and 10116.3 RFU and 11658.4 RFU | SYPRO Orange signal ([1]; 58 °C): 7910.74 RFU and 10957.9 RFU and 12439.3 RFU | SYPRO Orange signal ([1]; 59 °C): 8986.83 RFU and 12265.2 RFU and 14132.6 RFU | SYPRO Orange signal ([1]; 60 °C): 11443.7 RFU and 14614.9 RFU and 16452.7 RFU | SYPRO Orange signal ([1]; 61 °C): 14902 RFU and 17741.5 RFU and 21041 RFU | SYPRO Orange signal ([1]; 62 °C): 22268 RFU and 25516.7 RFU and 29825 RFU | SYPRO Orange signal ([1]; 63 °C): 33484.1 RFU and 37584.1 RFU and 44091.5 RFU | SYPRO Orange signal ([1]; 64 °C): 51752.4 RFU and 56793 RFU and 66753.7 RFU | SYPRO Orange signal ([1]; 65 °C): 77812.5 RFU and 83318.4 RFU and 98699.8 RFU | SYPRO Orange signal ([1]; 66 °C): 109641 RFU and 115417 RFU and 136698 RFU | Tm (°C) with BXA ([1]; A(H1N1)pdm09 PAN E23K+I38T 2 μM, BXA 37 μM): 65.0 ± 0.1 °C and 65 °C | ΔTm (°C) ([1]; A(H1N1)pdm09 PAN E23K+I38T, DMSO vs BXA 37 μM): 13.0 ± 0.4 °C | SYPRO Orange signal ([1]; Panel A, E23K+I38T, 67 °C): 141451 RFU and 147203 RFU and 172603 RFU | SYPRO Orange signal ([1]; Panel A, E23K+I38T, 68 °C): 168529 RFU and 172839 RFU and 202976 RFU | SYPRO Orange signal ([1]; Panel A, E23K+I38T, 69 °C): 187743 RFU and 188730 RFU and 221880 RFU | SYPRO Orange signal ([1]; Panel A, E23K+I38T, 70 °C): 197721 RFU and 197558 RFU and 231373 RFU | SYPRO Orange signal ([1]; Panel A, E23K+I38T, 71 °C): 201057 RFU and 200198 RFU and 234259 RFU | SYPRO Orange signal ([1]; Panel A, E23K+I38T, 72 °C): 201492 RFU and 200752 RFU and 233432 RFU | SYPRO Orange signal ([1]; Panel A, E23K+I38T, 73 °C): 200985 RFU and 201438 RFU and 231795 RFU | SYPRO Orange signal ([1]; Panel A, E23K+I38T, 74 °C): 199039 RFU and 201234 RFU and 229243 RFU | SYPRO Orange signal ([1]; Panel A, E23K+I38T, 75 °C): 196836 RFU and 200470 RFU and 226040 RFU | SYPRO Orange signal ([1]; Panel A, E23K+I38T, 76 °C): 194350 RFU and 199581 RFU and 223044 RFU | SYPRO Orange signal ([1]; Panel A, E23K+I38T, 77 °C): 191850 RFU and 197962 RFU and 220114 RFU | SYPRO Orange signal ([1]; Panel A, E23K+I38T, 78 °C): 188492 RFU and 195716 RFU and 216789 RFU | SYPRO Orange signal ([1]; Panel A, E23K+I38T, 79 °C): 185031 RFU and 192976 RFU and 213095 RFU | SYPRO Orange signal ([1]; Panel A, E23K+I38T, 80 °C): 181329 RFU and 188975 RFU and 209818 RFU | SYPRO Orange signal ([1]; Panel A, E23K+I38T, 81 °C): 177076 RFU and 185295 RFU and 205852 RFU | SYPRO Orange signal ([1]; Panel A, E23K+I38T, 82 °C): 172443 RFU and 180849 RFU and 201702 RFU | SYPRO Orange signal ([1]; Panel A, E23K+I38T, 83 °C): 168545 RFU and 176621 RFU and 197901 RFU | SYPRO Orange signal ([1]; Panel A, E23K+I38T, 84 °C): 164747 RFU and 173366 RFU and 192683 RFU | SYPRO Orange signal ([1]; Panel A, E23K+I38T, 85 °C): 160714 RFU and 167572 RFU and 187865 RFU | SYPRO Orange signal ([1]; Panel A, E23K+I38T, 86 °C): 156527 RFU and 164357 RFU and 182900 RFU | SYPRO Orange signal ([1]; Panel A, E23K+I38T, 87 °C): 152514 RFU and 159370 RFU and 178211 RFU | SYPRO Orange signal ([1]; Panel A, E23K+I38T, 88 °C): 148577 RFU and 156075 RFU and 172520 RFU | SYPRO Orange signal ([1]; Panel A, E23K+I38T, 89 °C): 144780 RFU and 150636 RFU and 169202 RFU | SYPRO Orange signal ([1]; Panel A, E23K+I38T, 90 °C): 140567 RFU and 146858 RFU and 164661 RFU | SYPRO Orange signal ([1]; Panel A, E23K+I38T, 91 °C): 136367 RFU and 142372 RFU and 160897 RFU | SYPRO Orange signal ([1]; Panel A, E23K+I38T, 92 °C): 132795 RFU and 135894 RFU and 156502 RFU | SYPRO Orange signal ([1]; Panel A, E23K+I38T, 93 °C): 128384 RFU and 133334 RFU and 151288 RFU | SYPRO Orange signal ([1]; Panel A, E23K+I38T, 94 °C): 124727 RFU and 130587 RFU and 145672 RFU | SYPRO Orange signal ([1]; Panel A, E23K+I38T, 95 °C): 117959 RFU and 125850 RFU and 139484 RFU | SYPRO Orange signal ([1]; Panel A, E23K+I38T, 96 °C): 105632 RFU and 120516 RFU and 129322 RFU | SYPRO Orange signal ([1]; Panel A, E23K+I38T, 97 °C): 102902 RFU and 114416 RFU and 118292 RFU | SYPRO Orange signal ([1]; Panel A, E23K+I38T, 98 °C): 98344.9 RFU and 110434 RFU and 111915 RFU | SYPRO Orange signal ([1]; Panel A, E23K+I38T, 99 °C): 89718.7 RFU and 110586 RFU and 107689 RFU | Tm (°C) with BXA ([2]; A(H3N2) PAN E23K 2 μM, BXA 37 μM): 73 °C and 73.0 ± 0.1 °C | ΔTm (°C) ([2]; A(H3N2) PAN E23K, DMSO vs BXA 37 μM): 24.0 ± 0.4 °C | SYPRO Orange signal ([3]; 30 °C): 10458.6 RFU and 10802.3 RFU and 9705.67 RFU | SYPRO Orange signal ([3]; 31 °C): 10908.1 RFU and 11315.3 RFU and 9849.1 RFU

Values joined by “and” are separate entries in the source; they are usually repeats but may differ in a detail not shown here. Equal entries are not always repeated.
